Source: patent publication US5066783A (priority 1988, dated 1991)

Assay: Boc solid-phase peptide synthesis; chloromethylated resin (1% cross linked); symmetrical anhydrides
Details: whole synthesis, overall

In the case of “H-Tyr-Ala-Gly-Ala-Val-Val-Asn-Asp-Leu-OH”, the isolated yield is reported as 74%.
